Measured values from ChEMBL document CHEMBL4425139, “Discovery, characterization, and lead optimization of 7-azaindole non-nucleoside HIV-1 reverse transcriptase inhibitors” (Bioorg Med Chem Lett, 2016).
Activity calls are given as the source filed them.

Experiments:
[1] = system: Human immunodeficiency virus type 1 reverse transcriptase (Human immunodeficiency virus 1), Q72547 [K103N]; test: Inhibition of HIV1 RT K103N mutant using 17-mer DNA/Alexa Fluor 488 5'-end labeled DNA/Alexa Fluor 555-aha-dUTP as primer/template/substrate preincubated for 10 mins followed substarte addition measured after 30 mins by FRET assay
[2] = system: Human immunodeficiency virus type 1 reverse transcriptase (Human immunodeficiency virus 1), Q72547 [V108I]; test: Inhibition of HIV1 RT V108I mutant using 17-mer DNA/Alexa Fluor 488 5'-end labeled DNA/Alexa Fluor 555-aha-dUTP as primer/template/substrate preincubated for 10 mins followed substarte addition measured after 30 mins by FRET assay
[3] = system: Human immunodeficiency virus type 1 reverse transcriptase (Human immunodeficiency virus 1), Q72547 [E138K]; test: Inhibition of HIV1 RT E138K using 17-mer DNA/Alexa Fluor 488 5'-end labeled DNA/Alexa Fluor 555-aha-dUTP as primer/template/substrate preincubated for 10 mins followed substarte addition measured after 30 mins by FRET assay

Measured: inhibition

CC1(C)CC(=O)c2c(nc3c(c(C#N)cn3Cc3ccccc3)c2-c2c(F)cccc2F)C1
inactive: [1] | [2] | [3]
